Results of unrelated studies side by side (data: NIAID ChemDB).

All rows: whole-cell or culture tests; agent: HIV-2; cell line: MT-4; read-out: EC50

Neighbouring rows are from separate reports.

structure	strain	method	result
CN(C)c1ccc(/C=C/C(=O)C2CCC3C4CC=C5C[C@@H](O)CC[C@]5(C)C4CC[C@]23C)c(Cl)c1	ROD	MTT	>12.95 µM
[C-]#[N+][C@H]1C[C@H](n2cc(C)c(=O)[nH]c2=O)O[C@@H]1CO	LAV-2	cytopathic effect	0.8 µM
C[C@]12CCC3C(CC=C4C[C@@H](O)CC[C@@]43C)C1CCC2C(=O)/C=C/c1ccoc1	ROD	MTT	>12 µM
N#Cc1ccc(Nc2nc(Oc3c(Br)cc(Br)cc3Br)ncc2N)cc1	ROD	MTT	>37 µM
Cc1ccc(C(C)C)c2oc(=O)c(C(=O)/C=C/c3ccc(N(C)C)cc3)c(O)c12	ROD	virus yield	>106 µg/mL
COC(=O)/C=C1\S/C(=N/N=C/c2ccc(OC)cc2)NC1=O	ROD	cytopathic effect / MTT	>72.1 µM
O=C(O)c1cc(Cc2cc(C(c3ccc(O)c(C(=O)O)c3)c3ccc(O)c(C(=O)O)c3)cc(C(=O)O)c2O)ccc1O	ROD	cytopathic effect / MTT	5.9 µg/mL
N#Cc1ccc(Nc2nc(Oc3c(Cl)cc(Cl)cc3Cl)ncc2NC(=O)C(F)(F)F)cc1	ROD	MTT	5 µM
Cc1ccc(CN=C2C=C(Cc3ccccc3)NS(=O)(=O)N2)cc1	ROD	MTT	>192 µM
C[C@]12CCC3C(CC=C4C[C@@H](O)CC[C@@]43C)C1CCC2C(=O)/C=C/c1ccsc1	ROD	MTT	60.5 µM
COC(=O)C(CS)NC(=O)CCCN1C(=O)c2ccccc2C1=O	ROD	MTT	>60.33 µM
CC(=O)c1ccc(N2CCN(c3cc4c(cc3N)c(=O)c(C(=O)O)cn4C)CC2)cc1	ROD	cytopathic effect / MTT	>0.157 µg/mL
Cc1ccc(NC2=NS(=O)(=O)NC(Cc3ccccc3)=C2)cc1C	ROD	MTT	>177 µM
COc1ccc(/C=C/C(=O)c2c(O)c3c(C)ccc(C(C)C)c3oc2=O)cc1OC	ROD	virus yield	>62 µg/mL
CCOC(=O)c1c(C)n([C@H]2C[C@@H]2c2ccccc2)c2ccc(O)cc12	ROD	MTT	>250 µM
C[C@]12CCC3C(CC=C4CC(O)CC[C@@]43C)C1CCC2C(/C=C/c1ccc(Br)cc1)=N/O	ROD	MTT	>10.28 µM
Cc1cc2oc(=O)c(C(=O)/C=C/c3ccc(O)cc3)c(O)c2cc1Cl	ROD	virus yield	>2.74 µg/mL
CC(=O)N1N=C(C2CCC3C4CC=C5C[C@@H](O)CC[C@]5(C)C4CC[C@]23C)CC1c1ccc(Br)cc1	ROD	MTT	>0.29 µM
CC(=O)OCC1=C[C@@H]2C(=O)[C@]3(C=C(C)[C@H](OC(C)=O)[C@@]3(O)[C@@H]1OC(C)=O)[C@H](C)C[C@@H]1[C@H]2C1(C)C	EHO	cytopathic effect / MTT	0.074 µM
C[C@]12CCC3C(CC=C4CC(O)CC[C@@]43C)C1CCC2C1=NN(C(N)=S)C(c2ccc(C(F)(F)F)cc2)C1	ROD	MTT	>7.92 µM
CC(C)C(NC(=S)NC(=O)CCCN1C(=O)c2ccccc2C1=O)C(=O)O	ROD	MTT	>26.73 µM
C[C@]12CCC3C(CC=C4C[C@@H](O)CC[C@@]43C)C1CCC2C(=O)/C=C/c1ccc2c(c1)Cc1ccccc1-2	ROD	MTT	>7.62 µM
CCOC(=O)CNc1nc(Nc2ccccc2)nc(Oc2cc(=O)oc3ccccc23)n1	ROD	MTT	>61.15 µg/mL
CC(=O)c1ccc(C)cc1NC(C(N)=O)c1c(Cl)cccc1Cl	ROD	cytopathic effect / MTT	>710 µM
Cc1cc(C)c(Nc2nc(NC3CCN(Cc4ccc(F)cc4)CC3)nc3nc[nH]c23)c(C)c1	ROD	MTT	>13.97 µM
O=S1(=O)N=C(Nc2ccc(Cl)c(F)c2)C=C(Cc2ccc3ccccc3c2)N1	ROD	MTT	>152 µM
COC(=O)C(Cc1ccccc1)NC(=O)CCCN1C(=O)c2ccccc2C1=O	ROD	MTT	>37.82 µM
Cc1cc(C#CCCO)cc(C)c1Oc1ccnc(Nc2ccc(C#N)cc2)n1	ROD	MTT	>3.555 µM
COC(=O)C(C)NC(=O)CCCN1C(=O)c2ccccc2C1=O	ROD	MTT	>101 µM
Cc1cc(C)c(Nc2nc(NC3CCN(Cc4ccc(Cl)c(Cl)c4)CC3)nc3nc[nH]c23)c(C)c1	ROD	MTT	>189 µM
OCC(O)C(O)C(O)c1nnc2n1N=C(c1ccccc1)CS2	ROD	-	17.4 µg/mL
CSCCC(NC(=S)NC(=O)CCCN1C(=O)c2ccccc2C1=O)C(=O)O	ROD	MTT	>78.22 µM
COc1ccc(NC2=NS(=O)(=O)NC(Cc3ccc4ccccc4c3)=C2)cc1	ROD	MTT	>165 µM
Nc1ncnc2c1ncn2[C@H]1C[C@@H](OCP(=O)(O)O)CO1	ROD	MTT / absorbance	5.23 µM
CC(NC(=S)NC(=O)CCCN1C(=O)c2ccccc2C1=O)C(=O)O	ROD	MTT	>125 µM
COc1cc(/C=C/C(=O)c2c(O)c3cc(Cl)c(C)cc3oc2=O)ccc1O	ROD	virus yield	>6.64 µg/mL
Cc1cc(C=O)cc(C)c1Oc1ncc(N)c(Nc2ccc(C#N)cc2)n1	ROD	MTT	>34 µM
Cc1cc2oc(=O)c(C(=O)/C=C/c3cccc(Oc4ccccc4)c3)c(O)c2cc1Cl	ROD	virus yield	>60.4 µg/mL
CC(C)CN(C[C@@H](O)[C@H](Cc1ccccc1)NC(=O)O[C@H]1CO[C@H]2OCC[C@H]21)S(=O)(=O)c1ccc2nc(NC3CCN(C4CCCC4)CC3)sc2c1	ROD	reporter gene	2.7 nM
Cc1cc2oc(=O)c(C(=O)/C=C/c3ccccc3[N+](=O)[O-])c(O)c2cc1Cl	ROD	virus yield	>10.1 µg/mL
N#Cc1ccc(Nc2nc(Oc3c(Cl)cccc3Cl)ncc2NC(=O)C(F)(F)F)cc1	ROD	MTT	>190 µM
COc1ccc(/C=C/C(=O)c2c(O)c3cc(Cl)c(C)cc3oc2=O)cc1OC	ROD	virus yield	>71.4 µg/mL
COC(=O)/C=C1\S/C(=N/N=C/C2CCCCC2)NC1=O	ROD	cytopathic effect / MTT	>57.53 µM
CCCOC(=O)[C@H](Cc1ccccc1)NP(=O)(CO[C@H]1CO[C@@H](n2cc(C)c(N)nc2=O)C1)N[C@@H](Cc1ccccc1)C(=O)OCCC	ROD	MTT / absorbance	16.7 µM
CN(C)c1ncnc2c1ncn2[C@@H]1O[C@H](CO)C[C@@H]1N=[N+]=[N-]	ROD	-	>81 µg/mL
Cc1cc(C)c(Nc2nc(NC3CCN(Cc4ccccc4C#N)CC3)nc3nc[nH]c23)c(C)c1	ROD	MTT	>125 µM
COC(=O)/C=C1\S/C(=N/N=C/c2c(F)cccc2Cl)NC1=O	ROD	cytopathic effect / MTT	>52.7 µM
Nc1ncnc2c1ncn2[C@@H]1C[C@@H](O)[C@@H](O)[C@H]1O	ROD	-	>0.8 µM
Cc1cc2oc(=O)c(C(=O)/C=C/c3ccc(N(C)C)cc3)c(O)c2cc1Cl	ROD	virus yield	>125 µg/mL
Nc1nc(N)c2ncn([C@H]3C[C@@H](OCP(=O)(O)O)CO3)c2n1	ROD	MTT / absorbance	8.15 µM
CCOC(=O)CNc1nc(NC(=O)Nc2cccc(Cl)c2)nc(Oc2cc(=O)oc3ccccc23)n1	ROD	MTT	>125 µg/mL
[N-]=[N+]=N[C@H]1C[C@@H](CO)O[C@H]1n1cnc2c(NC3CCCCC3)ncnc21	ROD	-	>125 µg/mL
Cc1cn([C@H]2C=C[C@@H](CO)O2)c(=O)[nH]c1=O	ROD	cytopathic effect / MTT	0.77 µM
Cc1cc(C#N)cc(C)c1Oc1ncc(N)c(Nc2ccc(C#N)cc2)n1	ROD	MTT	>35.1 µM
CC(C)CCC[C@@H](C)[C@H]1CC[C@H]2[C@@H]3CC[C@H]4C[C@@H](CCC=C(c5cc(Cl)c(O)c(C(=O)O)c5)c5cc(Cl)c(O)c(C(=O)O)c5)CC[C@]4(C)[C@H]3CC[C@]12C	ROD	cytopathic effect / MTT	4 µM
O=C(O)c1cccc(Cc2cccc(C(=O)O)c2O)c1O	ROD	cytopathic effect / MTT	>40 µg/mL
Cc1cc(C)c(Nc2nc(NC3CCN(Cc4ccc(C#N)cc4)CC3)nc3nc[nH]c23)c(C)c1	ROD	MTT	>26.79 µM
CC(C)CCC[C@@H](C)[C@H]1CC[C@H]2[C@@H]3CC[C@H]4C[C@@H](CCC=C(c5cc(Cl)c(O)c(C(=O)O)c5)c5cc(Cl)c(O)c(C(=O)O)c5)CC[C@]4(C)[C@H]3CC[C@]12C	ROD	cytopathic effect / MTT	4 µg/mL
Cc1cc(C)c(NC2=NS(=O)(=O)NC(Cc3ccc4ccccc4c3)=C2)c(C)c1	ROD	MTT	>96 µM
CCCOC(=O)[C@H](Cc1ccccc1)NP(=O)(CO[C@H]1CO[C@@H](n2cnc3c(N)nc(N)nc32)C1)N[C@@H](Cc1ccccc1)C(=O)OCCC	ROD	MTT / absorbance	0.03 µM
O=C(CCCN1C(=O)c2ccccc2C1=O)NC(=S)NC(CS)C(=O)O	ROD	MTT	>90.9 µM
O=S1(=O)N=C(Nc2ccc(F)c(F)c2)C=C(Cc2ccc3ccccc3c2)N1	ROD	MTT	>156 µM
O=c1c2ccccc2nc2scnn12	ROD	cytopathic effect / MTT	63.7 µg/mL
Cc1cc(C)c(Nc2nc(NC3CCN(Cc4ccc([N+](=O)[O-])cc4)CC3)nc3nc[nH]c23)c(C)c1	ROD	MTT	>21.8 µM
COC(=O)/C=C1\S/C(=N/N=C/c2ccc(Cl)cc2)NC1=O	ROD	cytopathic effect / MTT	>4.23 µM
Cc1ncn(Nc2cccc(Cl)c2)c1-c1cccc(C#N)c1	ROD	cytopathic effect / MTT	>10.9 µg/mL
O=S1(=O)N=C(Nc2cccc(Cl)c2)C=C(Cc2cccc3ccccc23)N1	ROD	MTT	>161 µM
COc1cc(/C=C/C(=O)c2c(O)c3c(C)ccc(C(C)C)c3oc2=O)ccc1O	ROD	virus yield	>14.2 µg/mL
CCOC(=O)CNc1nc(NC(=O)Nc2ccc(C)cc2)nc(Oc2cc(=O)oc3ccccc23)n1	ROD	MTT	>11.27 µg/mL
N#Cc1ccc(NC2=NS(=O)(=O)NC(Cc3ccccc3)=C2)cc1	ROD	MTT	>369 µM

The last 6 rows once more:

COC(=O)/C=C1\S/C(=N/N=C/c2ccc(Cl)cc2)NC1=O ; strain: ROD ; method: cytopathic effect / MTT ; result: >4.23 µM
Cc1ncn(Nc2cccc(Cl)c2)c1-c1cccc(C#N)c1 ; strain: ROD ; method: cytopathic effect / MTT ; result: >10.9 µg/mL
O=S1(=O)N=C(Nc2cccc(Cl)c2)C=C(Cc2cccc3ccccc23)N1 ; strain: ROD ; method: MTT ; result: >161 µM
COc1cc(/C=C/C(=O)c2c(O)c3c(C)ccc(C(C)C)c3oc2=O)ccc1O ; strain: ROD ; method: virus yield ; result: >14.2 µg/mL
CCOC(=O)CNc1nc(NC(=O)Nc2ccc(C)cc2)nc(Oc2cc(=O)oc3ccccc23)n1 ; strain: ROD ; method: MTT ; result: >11.27 µg/mL
N#Cc1ccc(NC2=NS(=O)(=O)NC(Cc3ccccc3)=C2)cc1 ; strain: ROD ; method: MTT ; result: >369 µM

ECn: concentration that inhibits the pathogen or its effect by n%. Blank or dashed fields: not listed here.